Results of unrelated studies side by side (data: NIAID ChemDB).

Shared fields: target-level tests; protein: Cathepsin D; read-out: IC50

An empty or dashed field is not shown.

SMILES | read by | value
CC(C)(C)NC(=O)[C@@H]1CCCN1C(=O)[C@@H](O)[C@H](Cc1ccccc1)NC(=O)[C@H](CC(N)=O)NC(=O)OCc1ccccc1 | HPLC | 100 µM
COC(=O)N[C@@H](Cc1c[nH]c2ccccc12)C(=O)NCCCC[C@@H](CO)N(CC(C)C)S(=O)(=O)c1ccc(N)cc1 | - | 30 µM
CC(C)[C@H](NC(=O)c1ccc2ccccc2n1)C(=O)N[C@@H](Cc1ccccc1)[C@H](O)CN1CC[C@@H](OCc2ccncc2)C[C@H]1C(=O)NC(C)(C)C | - | 100 µM
CC(C)[C@H](NC(=O)N(C)Cc1ccccn1)C(=O)N[C@@H](Cc1ccccc1)C(=O)C(F)(F)[C@H](Cc1ccccc1)NC(=O)[C@@H](NC(=O)N(C)Cc1ccccn1)C(C)C | - | 77 µM
CSC[C@H](NC(=O)COc1cccc2ccccc12)C(=O)N[C@@H](Cc1ccccc1)[C@H](O)C(=O)N1CSC(C)(C)[C@H]1C(=O)NC(C)(C)C | HPLC | 1.5 µM
CC(C)CN(C[C@@H](O)[C@H](Cc1ccccc1)NC(=O)[C@H](CC(N)=O)NC(=O)c1ccc2ccccc2n1)C(=O)NC(C)(C)C | - | >10 µM
COCCNC(=O)[C@@H](NC(=O)[C@H](Cc1ccc(OC)c(OC)c1OC)C[C@H](O)[C@H](Cc1ccccc1)NC(=O)OC(C)(C)C)C(C)C | - | 0.1 µM
CC1(C)S[C@H]([C@H](NC(=O)Cc2ccccc2)C(=O)NCc2ccccc2)N[C@H]1C(=O)NCCNC(=O)[C@@H]1N[C@@H]([C@H](NC(=O)Cc2ccccc2)C(=O)NCc2ccccc2)SC1(C)C | - | >100 µM
CC(C)(C)NC(=O)[C@H]1N(C(=O)[C@@H](O)[C@H](Cc2ccccc2)NC(=O)[C@H](CC(N)=O)NC(=O)COc2cccc(-c3ccccc3)c2)CSC1(C)C | HPLC | 2.9 µM
CC(C)[C@H](NS(=O)(=O)CCc1ccccn1)C(=O)N[C@@H](Cc1ccccc1)C(=O)C(F)(F)[C@H](Cc1ccccc1)NC(=O)[C@@H](NS(=O)(=O)CCc1ccccn1)C(C)C | - | >100 µM
CCCCNC(=O)[C@H](C)C[C@H](O)[C@H](CC1CCCCC1)NC(=O)[C@@H](NC(=O)[C@H](CCCN)NC(=O)OCc1ccccc1)C(C)C | - | 96 µM
CSC[C@H](NC(=O)COc1cccc2cnccc12)C(=O)N[C@@H](Cc1ccccc1)[C@H](O)C(=O)N1CSC(C)(C)[C@H]1C(=O)NC(C)(C)C | - | 23 µM
CC(C)(C)NC(=O)[C@H]1N(C(=O)[C@@H](O)[C@H](Cc2ccccc2)NC(=O)[C@H](CC(N)=O)NC(=O)COc2cccc3ccccc23)CSC1(C)C | HPLC | 6.5 µM
CC(C)(C)OC(=O)N[C@@H](Cc1ccccc1)[C@H](O)CNC[C@@H](O)[C@H](Cc1ccccc1)NC(=O)OC(C)(C)C | absorbance | >31 µM
CC(C)C[C@H](NC(=O)[C@H](Cc1ccccc1)C[C@@H](O)[C@H](Cc1ccccc1)NC(=O)OC(C)(C)C)C(=O)N[C@@H](Cc1ccccc1)C(N)=O | - | 1.8 µM
Cc1cccc(COC(=O)N[C@H](C(=O)N[C@@H](Cc2ccccc2)C(=O)C(F)(F)[C@H](Cc2ccccc2)NC(=O)[C@@H](NC(=O)OCc2cccc(C)n2)C(C)C)C(C)C)n1 | - | >100 µM
CCC(Cc1ccccc1)c1cc(O)c(C(CC)c2ccccc2)c(=O)o1 | - | ~10 µM
CCCCNC(=O)[C@H](C)C[C@H](O)[C@H](CC1CCCCC1)NC(=O)[C@@H](NC(=O)[C@@H](NC(=O)OC(C)(C)C)[C@@H](C)O)C(C)C | - | 1.4 µM
CSC[C@H](NC(=O)COc1cccc2cnccc12)C(=O)N[C@@H](Cc1ccccc1)[C@H](O)C(=O)N1CSC(C)(C)[C@H]1C(=O)NC(C)(C)C | - | 23 µM
CC(C)CN(C[C@@H](O)[C@H](Cc1ccccc1)NC(=O)[C@H](CC(N)=O)NC(=O)c1ccc2ccccc2n1)C(=O)NC(C)(C)C | - | >10 µM

Repeating the first 2 entries:

{"SMILES": "CC(C)(C)NC(=O)[C@@H]1CCCN1C(=O)[C@@H](O)[C@H](Cc1ccccc1)NC(=O)[C@H](CC(N)=O)NC(=O)OCc1ccccc1", "read by": "HPLC", "value": "100 µM"}
{"SMILES": "COC(=O)N[C@@H](Cc1c[nH]c2ccccc12)C(=O)NCCCC[C@@H](CO)N(CC(C)C)S(=O)(=O)c1ccc(N)cc1", "value": "30 µM"}

ICn is the concentration giving n% inhibition. Conditions beyond the fields shown may differ between rows.